This note sets out measurements from publication PMC12102759 (Protein Science : A Publication of the Protein Society, 2025).

The target in the assay is SARS‐CoV‐2 NSP3 ADRP domain (1023–1192), tag cleaved, for FP (SARS-CoV-2, UniProt P0DTD1 1023-1192). The assay can be described thus: fluorescence polarisation. The settings on record: both partners purified. For orientation: Polarisation of emitted light reports the rotation of a fluorescent probe.

One may read the Kd as the equilibrium constant for the complex coming apart. Molecule TGSTYLHPLSELLGIP [wild‐type MBOAT1_(16–31) peptide] had a Kd of 49 µM.
